{"source": "paper PMC7739888", "about": "“Induction of the cydAB Operon Encoding the bd Quinol Oxidase Under Respiration-Inhibitory Conditions by the Major cAMP Receptor Protein MSMEG_6189 in Mycobacterium smegmatis”", "biological_target": "T1, Crp1 (MSMEG_6189), C-terminal His6 (UniProt A0R5H1)", "T1 sequence (looked up, limits assumed)": "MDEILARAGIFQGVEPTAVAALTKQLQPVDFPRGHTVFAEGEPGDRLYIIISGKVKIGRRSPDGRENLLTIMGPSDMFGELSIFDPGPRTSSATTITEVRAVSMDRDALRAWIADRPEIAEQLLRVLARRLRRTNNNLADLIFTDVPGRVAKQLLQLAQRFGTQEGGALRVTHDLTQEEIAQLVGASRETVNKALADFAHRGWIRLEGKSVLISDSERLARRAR", "test": "DNase I footprinting", "details": "CBS2 better than CBS1, footprinting: 20 mM Tris-HCl pH 8.0, 0.2 mM MgCl2, 2.1 mM KCl, 0.04 mM DTT, 11.1% glycerol, 25 C, 0.15-0.6 uM Crp1, recombinant protein, protein details: C-terminal His6, label: 5' TAMRA on non-coding strand, probe letters rebuilt from the primers and the genome, part of a longer molecule", "note": "Construct, isoform or probe ends are uncertain for at least one entry. The comparison behind a weaker result is the experiment's own reference, which may not be listed here. Where a protein sequence is shown, tags need not be part of it."}
{"sequence": "TCGTCCTCGGCGTCTTCGAGGTCGTCTCGGCGTTCGGCATCCGCAGCGGGGTCAGGAAGCTCGGCGCCGCCTTGTCGACCGGCTCACCATCGGCGCCTCCCGTGAGCTAACCCACCGCGCTACCTGCGTCGATCTCCTGGCTATCGCCGAGCATCGCTACTACACTCCGTCGTAGATCGACCTGGCAGGCTCGAAAGTAGGTCAGATGGACGCTCTGGAC (double strand) [cydA footprint fragment 271-bp]", "values": [{"measurement": "binding result", "setting": "200 uM cAMP, wider, clearer protection", "result": "binds"}, {"measurement": "binding result", "setting": "no cAMP", "result": "binds more weakly"}]}
